{
  "source": "patent US20170152290A1",
  "about": "“Beta hairpin peptides having antiviral properties against Dengue virus” (published 2017)",
  "key": {"[1]": {"target": "T1, activated human alfa-2-macroglobulin (α2M_MeNH2) (human), P01023", "T1 chain": "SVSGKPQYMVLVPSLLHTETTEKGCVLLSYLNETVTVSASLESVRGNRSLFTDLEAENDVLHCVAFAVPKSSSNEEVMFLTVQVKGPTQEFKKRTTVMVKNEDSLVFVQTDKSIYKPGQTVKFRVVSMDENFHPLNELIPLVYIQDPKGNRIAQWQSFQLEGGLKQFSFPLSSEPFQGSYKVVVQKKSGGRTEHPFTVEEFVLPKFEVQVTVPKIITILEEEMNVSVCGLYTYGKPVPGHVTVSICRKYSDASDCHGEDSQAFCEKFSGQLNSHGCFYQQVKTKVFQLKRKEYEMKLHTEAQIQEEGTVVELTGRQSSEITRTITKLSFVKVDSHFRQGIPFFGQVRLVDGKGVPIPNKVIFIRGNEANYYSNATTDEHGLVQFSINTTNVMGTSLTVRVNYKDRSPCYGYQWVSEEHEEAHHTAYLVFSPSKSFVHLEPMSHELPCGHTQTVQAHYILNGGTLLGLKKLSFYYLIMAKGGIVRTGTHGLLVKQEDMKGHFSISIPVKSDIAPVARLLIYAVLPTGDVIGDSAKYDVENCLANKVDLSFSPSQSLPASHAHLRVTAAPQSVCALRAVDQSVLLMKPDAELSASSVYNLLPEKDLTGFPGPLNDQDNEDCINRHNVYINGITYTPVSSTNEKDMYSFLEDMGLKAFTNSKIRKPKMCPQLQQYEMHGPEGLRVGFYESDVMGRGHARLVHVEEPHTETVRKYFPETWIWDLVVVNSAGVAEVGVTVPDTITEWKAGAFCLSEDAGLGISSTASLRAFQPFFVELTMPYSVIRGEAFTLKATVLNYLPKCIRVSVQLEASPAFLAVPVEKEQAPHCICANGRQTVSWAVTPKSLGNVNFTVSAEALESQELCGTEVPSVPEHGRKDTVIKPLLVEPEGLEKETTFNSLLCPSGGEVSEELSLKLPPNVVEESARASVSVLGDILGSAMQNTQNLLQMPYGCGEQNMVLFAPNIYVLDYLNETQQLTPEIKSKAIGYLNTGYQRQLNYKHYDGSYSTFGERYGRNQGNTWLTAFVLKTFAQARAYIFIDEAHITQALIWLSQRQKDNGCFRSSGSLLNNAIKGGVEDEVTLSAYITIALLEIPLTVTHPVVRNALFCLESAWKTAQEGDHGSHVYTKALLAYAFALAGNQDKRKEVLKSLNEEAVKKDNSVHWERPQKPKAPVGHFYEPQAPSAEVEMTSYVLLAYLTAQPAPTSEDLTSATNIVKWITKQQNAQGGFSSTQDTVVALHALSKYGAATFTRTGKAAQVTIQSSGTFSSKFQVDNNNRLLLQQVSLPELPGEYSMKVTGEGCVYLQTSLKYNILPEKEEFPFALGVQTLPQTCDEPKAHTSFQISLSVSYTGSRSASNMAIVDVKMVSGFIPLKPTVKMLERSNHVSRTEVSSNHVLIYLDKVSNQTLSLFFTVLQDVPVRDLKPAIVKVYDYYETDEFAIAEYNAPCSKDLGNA", "test": "competition ELISA, α2M* coated, DIIIE1Jbiot as labelled ligand"}, "[2]": {"target": "LRP1 receptor (Low Density Lipoprotein Receptor-Related Protein) on Vero cells", "test": "cell-based or functional assay"}, "[3]": {"target": "sLRP1-CIV (cluster IV of LRP1 fused to the constant region of a human IgG1) (human)", "test": "SPR (Biacore X), sLRP1-CIV immobilised on CM5 chip, peptide at 20 µM; RU observed at 160 s"}},
  "data": [
    {"binder": "CSNIVIGIGDKALKINWCKK (modifications not checked)", "note": "[peptide HDIII3CL]", "values": [
      {"measurement": "maximum inhibition percentage", "setting": "[1]", "result": 18, "unit": "%"},
      {"measurement": "Antiviral activity IC50 vs DENV1 (plaque reduction, Vero cells)", "setting": "[2]", "result": 15, "unit": "µM"},
      {"measurement": "Antiviral activity IC50 vs DENV2 (plaque reduction, Vero cells)", "setting": "[2]", "result": 20, "unit": "µM"},
      {"measurement": "Antiviral activity IC50 vs DENV3 (plaque reduction, Vero cells)", "setting": "[2]", "result": 20, "unit": "µM"},
      {"measurement": "Antiviral activity IC50 vs DENV4 (plaque reduction, Vero cells)", "setting": "[2]", "result": 50, "unit": "µM"},
      {"measurement": "Antiviral activity in Vero cells, IC50 (plaque reduction, DENV2)", "setting": "[2]", "result": 20, "unit": "µM"},
      {"measurement": "RU (at 160 s)", "setting": "[3]", "result": 562, "unit": "RU"}
    ]}
  ]
}
